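Growth of Mycobacterium tuberculosis over 3 days (7H9 medium with glucose and tyloxapol); the read-out is not stated. Tested at 500 µM. The record gives no direction; compounds that gave an IC50 in retests scored well above the rest, so higher reads as more growth inhibition. Of about 18,000 compounds tested this way, about 1,400 (7.9%) reached 50% or more in at least one test.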

The filed quantity is “Percent Effect” (%). How 0% and 100% were set is not recorded. Most values in the screen are low, and negative values occur. The entries come from a sample that favours strong results.

Compound | percent effect
Cn1nccc1CCC(=O)N1C[C@H](C2CC2)[C@@H](N)C1 | 8.647
CCOC(=O)Cn1nnc2ccccc2c1=O | 52.11
CS(=O)(=O)N1CC(CO)C1 | 4.241
NC(=O)C1CCN(CCOc2ccc(F)cc2)CC1 | 1.795
CC(=O)NCCCN1CCC(CNc2ccccn2)C1 (stereo not drawn) | 9.7
CCOc1cc(Cl)c(CNCCO)cc1OC | 13.59
COC(=O)N1CCN(C(=O)c2ccc(Br)cc2O)CC1 | 36.68
CN(Cc1ccsc1)CC(O)COCc1ccco1 (stereo not drawn) | 45.64
O=c1ccc(-c2noc(C3CCCC3)n2)c[nH]1 | 2.329
Cc1cccc(NCCCNC(=O)C(C)C)n1 | 9.837
O=C(NC1CC1)C1CCN(CC2CCC2)CC1 | -8.359
CCNC(=O)Nc1cc(OC)cc(OC)c1 | 45.63
Cc1noc(C)c1CNC1CCN(S(C)(=O)=O)CC1 | -6.628
CNCc1ncon1 | 2.819
COCCN1CCN(Cc2ccc(C#N)o2)CC1=O | 8.084
CC(Cn1cncn1)NC(=O)Cc1c(F)cccc1Cl (stereo not drawn) | 2.035
Cc1nnc(CN(C)C(=O)CSCC2CC2)o1 | 14.41
Cn1cnnc1CN1CCC(C2CCOCC2)CC1 | 0.92
CCNC(=O)NCCOC(=O)c1cccc2cc[nH]c12 | 52.58
NC(=O)CN1CCN(Cc2ccc3c(c2)CCO3)CC1 | 8.682
CCCn1cc(NC(C)CCn2cncn2)cn1 (stereo not drawn) | 31.33
NCCC1COc2ccccc2O1 (stereo not drawn) | -12.25
COc1ccc(C(=O)CCC(=O)N(C)C)c(Cl)c1 | 1.38
COc1cccc(Cl)c1CN1CCCNCC1 | 60.44
Cc1noc(C)c1C(=O)N1CCCN(C)CC1 | 5.833
Cc1cc(Cn2cc(S(=O)(=O)N(C)C)ccc2=O)no1 | 12.74
CN(CC1CC(O)C1)C(=O)c1ccc2ccccc2n1 (stereo not drawn) | 19.04
CCc1nn2c(=O)cc(CN3CCOC(C)C3)nc2s1 (stereo not drawn) | 16.73
CCCSCCNC1CCNCC1 | 0.6428
CC(C)OCCC(=O)NCC(C)(C)N1CC[S+]([O-])CC1 | -7.252
CC(C)OCCCNC(=O)c1ccc(S(N)(=O)=O)cc1 | 38.68
NCc1cc(=O)n2ccccc2n1 | -20.82
CC(C)CN(CC(N)=O)S(=O)(=O)N(C)C1CCCCC1 | 31.03
NC(=O)NC(=O)CCS(=O)(=O)c1cc(F)ccc1F | 103.6
CN(C1(C#N)CCC1)S(=O)(=O)c1ccccc1 | 59.79
O=C(c1ccccn1)N1CCN(C(=O)C2CC2)CC1 | 5.735
CCN(CC)C(=O)CN(C)S(=O)(=O)C(C)C(F)(F)F (stereo not drawn) | 10.49
CCc1ccc(CN2CCCCC2C(=O)NC)nc1 (stereo not drawn) | 11.4
Clc1cnc(NCCNCc2cc[nH]n2)c(Cl)c1 | 65.78
CN1C(=O)Cc2cc(C(=O)NCc3ccco3)ccc21 | 17.4
OCCOCCNCC(O)COCc1ccccc1Cl (stereo not drawn) | 67.41
OC1(CNCc2nnc3ccccn23)CNCCOC1 (stereo not drawn) | -20.56
OCC(Nc1ncccc1Br)c1ccccc1 (stereo not drawn) | 67.84
NS(=O)(=O)c1ccc(NC(=O)c2ccccc2O)cc1 | 36.47
CN(CCOc1ccc(Cl)cc1)C(=O)C(C)(C)CN | 84.49
Cc1nsc(NC(=O)N2CCC(CN)CC2)n1 | 10.53
CC(C)C(NCCCF)C(=O)N1CCOCC1 (stereo not drawn) | -9.721
NCCc1ccc(C(F)(F)F)cn1 | 28.12
CC(N)c1ccc(N2CCCCC2=O)cc1 (stereo not drawn) | -13.13
NCCSCc1ccccc1F | 81.04
CN(C)Cc1ccc(CN)s1 | 15.64
CC(=O)NCCNCc1cc(O)c2cc(F)ccc2n1 | 5.967
CCOC(=O)CN(C)C(=O)c1ccc(=O)n(C)n1 | -6.889
CNc1nc(NCC(C)CO)ncc1Br (stereo not drawn) | 2.915
COCC(=O)Nc1cccc(CN(C)C(C)=O)c1 | 4.078
COCC(C)NC(=O)CSc1ccc(C(C)=O)cc1F (stereo not drawn) | 6.522
CC(C)c1ccc(NC(=O)C2COCCN2C)cc1 (stereo not drawn) | 61.59
CN(CCc1cccs1)CC(=O)NC1CCS(=O)(=O)C1 (stereo not drawn) | 15.75
CC(C)COCC(O)CNC(=O)C1(C#N)CCCC1 (stereo not drawn) | 21.58
O=C(CSc1nc[nH]n1)NCCCc1ccccc1 | 26.86
O=C1CCNc2ncccc2N1 | 2.081
COCc1nn(Cc2cccc3cccnc23)c(=O)o1 | 69.38
COc1ccc(Br)c(S(=O)(=O)NCCCN)c1 | 44.59
O=C(COC(=O)c1ccccn1)Nc1ccccc1 | 65.34
Cc1cccc(OCC(=O)NCC2CCNCC2)c1 | 24.61
CNCc1nnc(C2CC2)n1C | -9.601
CCc1ccccc1N1CC(C(=O)NC)CC1=O (stereo not drawn) | 6.241
CCc1ccc(NC(=O)CN2CC[C@@H](N)C2)cc1 | 54.73
CNc1ncccc1C(=O)N1CC[C@](C)(O)[C@@H](O)C1 | 8.354
COc1ccc(CNC(=O)c2cnsn2)cc1 | -15.02
CNC(=O)C(N)C(C)C (stereo not drawn) | -2.132
CNC(=O)CSC(C)C(=O)N(C)C(C)C (stereo not drawn) | -0.1738
Cc1nn(CCO)c(C)c1CN1CCCC(C#N)C1 (stereo not drawn) | 4.153
NCC(=O)Cc1ccc(Br)cc1 | 26.18
COc1ccnc(CSc2n[nH]c(=O)n2C)c1OC | -6.21
CCNCc1cccc(NC(=O)C(C)COC)c1 (stereo not drawn) | 45.85
CC(=O)NCc1cccc(OCc2ccccn2)c1 | 37.57
Cc1ncccc1NS(=O)(=O)CCc1ccccc1 | 2.43
NC(=O)C(NC(=O)c1sccc1Br)c1ccccc1 (stereo not drawn) | 52.74
c1cc(C2CNCCO2)nc(N2CCCC2)n1 (stereo not drawn) | 24.42

Measurements from “University of Dundee, Small-Polar-MMV Screening Library” (2021), ChEMBL document CHEMBL3988442.